From PMC2718843

Biological target: gp120 from CC101.19 cl.7 (HIV-1)

CD4-IgG2 (PRO542) (from UniProt P01730) (Fc fusion)
IC50 for inhibition of replication of the clonal virus in PBMC (p24 antigen); inhibits gp120-CD4 binding: 0.1 µg/mL
